Pooled drug test results. Numbers come from NIAID ChemDB, via PubChem.

Common to all: cytotoxicity tests; cells: HepG2; measure: CC50

Neighbouring rows are from separate reports. Blank or dashed fields: not listed here. CCn: concentration that lowers growth or viability of the cells by n%. a–b is a range or a potency band.

| smiles | read by | value |
|---|---|---|
| CNC(=O)c1ccc(-n2c(NC(C)C)nc3c(c2=O)C[C@@H](C)N(C(=O)c2ccc(Cl)c(C(F)(F)F)c2)C3)cc1 | luminescence | >50 µM |
| Cc1ccc(F)c(NC(=O)c2c(C)c(C(=O)C(=O)NC(C)(C)C)n(C)c2C)c1 | MTT | >30 µM |
| C[C@H]1C[C@@H]1NC(=O)c1cc2sc(OC3CC(N4CCOCC4)C3)nc2s1 | fluorescence | >100 µM |
| O=C(O)CCN1c2ccccc2Sc2ccccc21 | resazurin | >32 µg/mL |
| CCOC(=O)CCCCCOc1cccc(CN(C(=O)c2ccc(-c3cccc(NC=O)c3)cc2)C(C)C)c1 | - | >20 µM |
| Cc1cc(NC(=O)c2c(C)c(C(=O)C(=O)N[C@@H]3CCN[C@H](C(=O)O)C3)n(C)c2C)ccc1F | MTT | >30 µM |
| CCOC(=O)CCCCOc1ccccc1C=O | - | >20 µM |
| C/C=C/C=C/c1nc2cc(OC)ccc2n2cccc12 | MTT / absorbance | 5.8 µM |
| CCOC(=O)CCCCCOc1cccc(CN(C(=O)c2ccc(-c3cccc(Cl)c3)cc2)C(C)C)c1 | - | <13.5 µM |
| CCCC/C=C/C=C/c1nc2cc(OC)ccc2n2cccc12 | MTT / absorbance | 18.3 µM |
| O=C(c1ccccc1)N1c2ccccc2Sc2ccccc21 | resazurin | >32 µg/mL |
| CNC(=O)c1ccc(-n2c(NC(C)C)nc3c(c2=O)C[C@@H](C)N(C(=O)c2ccc(Br)c(C(F)(F)F)c2)C3)cn1 | luminescence | >50 µM |
| CCCNCc1cccc(OCCCCCC(=O)OCC)c1 | - | >20 µM |
| O=C(Nc1ccc(C(F)(F)F)cc1)Nc1cccc(Cl)c1 | luminescence | 5.6 µM |
| CNC(=O)c1cc(-n2c(NC(C)C)nc3c(c2=O)C[C@@H](C)N(C(=O)c2ccc(Cl)c(C(F)(F)F)c2)C3)nn1C(C)C | luminescence | >50 µM |
| c1ccc(-c2ccc3c(NCCCNCc4ccco4)ccnc3c2)cc1 | fluorescence | 5.92 µM |
| Cc1cc(NC(=O)c2c(C)c(C(=O)C(=O)N3CCOCC3)n(C)c2C)ccc1F | MTT | >30 µM |
| CCc1ccc([C@H]2C[C@@H](C(F)(F)F)n3ncc(C(=O)NCc4ccc(OC)cc4)c3N2)cc1 | resazurin | >25 µM |
| Cc1cc(NC(=O)c2c(C)c(C(=O)C(=O)NC34CC(C3)C4)n(C)c2C)ccc1F | MTT | 5–30 µM |
| C[C@H]1CN(c2nc3sc(C(=O)N[C@H]4C[C@@H]4C)cc3s2)[C@@H](C)CO1 | fluorescence | >100 µM |
| COc1cccc(CNCCCNc2ccnc3cc(-c4ccc(F)cc4)ccc23)c1O | fluorescence | 6.84 µM |
| CCC(C)[C@@H]1NC(=O)[C@@H](C(C)C)NC(=O)[C@H](CC(C)C)NC(=O)[C@H](Cc2c[nH]c3ccccc23)NC(=O)CNC(=O)[C@H](CC(N)=O)NC1=O | MTT | >30 µM |
| C/C=C/C=C/c1nc2ccccc2n2ccc(OCC)c12 | MTT / absorbance | 4.5 µM |
| NNC(=O)c1ccncc1 | MTT | >30 µM |
| Cc1cc(NC(=O)c2c(C)c(C(=O)C(=O)NC3(C)CC(O)C3)n(C)c2-c2nccs2)ccc1F | MTT | >30 µM |
| O=C(Nc1ccc(Cl)cc1)Nc1ccc(Nc2ccccc2)cc1 | luminescence | >100 µM |
| CCOC(=O)CCCCCOc1cccc(CN(C(=O)c2ccc(-c3cc(OC)cc(OC)c3)cc2)C(C)C)c1 | - | >20 µM |
| Cc1cc(NC(=O)c2c(C)c(C(=O)C(=O)NC3CCCN(CC(=O)O)C3)n(C)c2C)ccc1F | MTT | >30 µM |
| CCOC(=O)CCCCCOc1cccc(CN(C(=O)c2ccc(-c3cccc(-c4nnc(C)o4)c3)cc2)C(C)C)c1 | - | >20 µM |
| COc1cccc(CNCCCNc2ccnc3cc(Oc4ccc(F)cc4)ccc23)c1O | fluorescence | 11 µM |
| CC(C)C[C@@H]1NC(=O)[C@H](Cc2c[nH]c3ccccc23)NC(=O)C(C)(C)NC(=O)[C@H](CCCCN)NC(=O)[C@H](C(C)C)NC(=O)[C@@H](CC(C)C)NC1=O | MTT | >30 µM |
| COc1cccc(-c2ccc(C(=O)N(Cc3cccc(OCCCCCC(=O)OC(=O)O)c3)C(C)C)cc2)c1 | - | >20 µM |
| CCOc1ccc(NC(=S)Nc2ccccc2)cc1 | luminescence | >100 µM |
| CC(C)C[C@@H]1NC(=O)[C@H](Cc2c[nH]c3ccccc23)NC(=O)C(C[C@@H](C)[C@H](N)C(=O)O)NC(=O)[C@H](CC(N)=O)NC(=O)[C@H](C(C)C)NC(=O)[C@@H](CC(C)C)NC1=O | MTT | >30 µM |
| O=C1c2ccccc2C(=O)N1CCC(=O)N1c2ccccc2Sc2ccccc21 | resazurin | >32 µg/mL |
| Cc1cc(OCC(=O)N2CCC(C)CC2)ccc1Br | luminescence | 55 µM |
| COCCCN1c2ccccc2Sc2ccccc21 | resazurin | >32 µg/mL |
| CNC(=O)CC1CC(n2c(NC(C)C)nc3c(c2=O)C[C@@H](C)N(C(=O)c2ccc(Cl)c(C(F)(F)F)c2)C3)C1 | luminescence | >50 µM |
| CCCC/C=C/C=C/c1nc2ccc(OC)cc2n2cccc12 | MTT / absorbance | 22.9 µM |
| Clc1ccc(Oc2ccc3c(NCCCNCc4ccco4)ccnc3c2)cc1 | fluorescence | 7.8 µM |
| Cc1cc(NC(=O)c2c(C)c(C(=O)C(=O)NC3CCC(S(C)(=O)=O)CC3)n(C)c2C(C)C)ccc1F | MTT | >30 µM |
| OCc1cn(-c2ccc(F)cc2)nc1-c1ccc(Cl)cc1 | luminescence | >100 µM |
| Cc1cc(NC(=O)c2c(C)c(C(=O)C(=O)NC3(CO)CCN(C(=O)c4cnn(C)c4)CC3)n(C)c2C)ccc1F | MTT | >30 µM |
| CC1CC(NC(=O)c2cc3sc(N4CCN(C5COC5)[C@H](C)C4)nc3s2)C1 | fluorescence | >100 µM |
| CCOC(=O)CCCCCOc1cccc(CN(C(=O)c2ccccc2)C(C)C)c1 | - | >20 µM |
| Nc1c(C(=O)Cc2ccccc2)sc2ccc(Cc3ccccc3)c(-c3ccc(F)cc3)c12 | luminescence | >100 µM |
| Cc1ccc(NC(=O)NC2c3ccccc3Sc3ccccc32)cc1 | resazurin | >32 µg/mL |
| CCNc1ccnc2sc(C(=O)Cc3ccccc3)c(N)c12 | luminescence | 42 µM |
| CC(C)C[C@@H]1NC(=O)[C@H](Cc2c[nH]c3ccccc23)NC(=O)[C@@H](CCCN=C(N)N)NC(=O)[C@H](CC(N)=O)NC(=O)[C@H](C(C)C)NC(=O)[C@@H](CC(C)C)NC1=O | MTT | >30 µM |
| CCC/C=C/C=C/c1nc2cccc(OC)c2n2cccc12 | MTT / absorbance | 17.4 µM |
| C[C@H]1C[C@@H]1NC(=O)c1cc2sc(C3CC3)nc2s1 | fluorescence | >100 µM |
| COc1cccc(CNCCCNc2ccnc3cc(Cc4ccc(C#N)cc4)ccc23)c1O | fluorescence | 7.15 µM |
| O=C(CSc1ccc(Cl)cc1)Nc1ccc(F)c(Cl)c1 | luminescence | >100 µM |

For reference, 6 entries again:

smiles | read by | value
Cc1cc(NC(=O)c2c(C)c(C(=O)C(=O)N[C@@H]3CCN[C@H](C(=O)O)C3)n(C)c2C)ccc1F | MTT | >30 µM
CCC(C)[C@@H]1NC(=O)[C@@H](C(C)C)NC(=O)[C@H](CC(C)C)NC(=O)[C@H](Cc2c[nH]c3ccccc23)NC(=O)CNC(=O)[C@H](CC(N)=O)NC1=O | MTT | >30 µM
O=C(c1ccccc1)N1c2ccccc2Sc2ccccc21 | resazurin | >32 µg/mL
CC(C)C[C@@H]1NC(=O)[C@H](Cc2c[nH]c3ccccc23)NC(=O)C(C)(C)NC(=O)[C@H](CCCCN)NC(=O)[C@H](C(C)C)NC(=O)[C@@H](CC(C)C)NC1=O | MTT | >30 µM
COc1cccc(-c2ccc(C(=O)N(Cc3cccc(OCCCCCC(=O)OC(=O)O)c3)C(C)C)cc2)c1 | - | >20 µM
Clc1ccc(Oc2ccc3c(NCCCNCc4ccco4)ccnc3c2)cc1 | fluorescence | 7.8 µM